Data reported in PubChem BioAssay.
Values joined by “and” are separate entries in the source; they are usually repeats but may differ in a detail not shown here. Equal entries are not always repeated. The entries are a selection whose mix differs from that of the whole data set. Active and inactive are the calls of the source. No stated cut-off is given here; in the data, active means parasite load remaining mostly below about 12% (no sharp cut-off); inactive means mostly above about 10%.

Assay: liver-stage malaria parasite growth inhibition, primary screen, cell-based, HepG2, luciferase luminescence, HepG2 viability (AID 624349);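 further: 100% = mean of DMSO negative control wells on the same plate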
Settings: P. berghei liver stage in HepG2, luciferase luminescence; active compounds read low; concentration not given here

SMILES | parasite load remaining
C/C1=C2N=C(/C=C3N=C(/C(C)=C4\[N-][C@@](C)([C@@H]5N=C1[C@](C)(CCC(=O)NC[C@@H](C)OP(=O)([O-])O[C@H]1[C@@H](O)[C@@H](n6cnc7cc(C)c(C)cc76)O[C@@H]1CO)[C@H]5CC(N)=O)[C@@](C)(CC(N)=O)[C@@H]4CCC(N)=O)[C@@](C)(CC(N)=O)[C@@H]\3CCC(N)=O)C(C)(C)[C@@H]/2CCC(N)=O.[C-]#N.[Co+3] | inactive: 122% and inactive: 85.3%
OCCSCCO | inactive: 162%
